Measured values from several laboratories, pooled; numbers as filed in NIAID ChemDB.

All rows: tests on isolated targets; species: HIV-1; target: Reverse transcriptase; read by: nucleotide incorporation / radiometric; endpoint: IC50

Neighbouring rows are from separate reports.

structure	conditions	strain	changes	result
Nc1cc(OC[C@H]2CC[C@@H](COP(=O)([O-])OP(=O)([O-])OP(=O)([O-])O)O2)nc(N)n1	Mn2+	-	-	352 µM
Cc1occc1C(=S)Nc1ccc(Cl)c(C(=O)OCC2CC2)c1	-	-	RT-V106A	>50 µM
NC[C@@H]1CC[C@H](n2cc(-c3cccs3)c(=O)[nH]c2=O)O1	-	-	-	200 µg/mL
CCNC(=O)N1CCc2c(OCCc3cnc4c(c3)C(=O)N(C)c3cccnc3N4CC)ccc(C(=O)O)c2C1	-	WT	-	<0.1 µM
CCN1c2ncc(CCOc3ccc(NC(=O)c4ccccc4C(=O)O)cc3C)cc2C(=O)N(C)c2cccnc21	-	IIIB	-	<0.05 µM
CC(=O)O[C@H]1CC[C@@]2(C)[C@@H](CC[C@@]3(C)[C@H]2CC=C2[C@@H]([C@H](C)CC/C=C(\C)C(=O)O)CC[C@@]23C)C1(C)C	-	-	-	15.5 µg/mL
CC1=C(C#C/C(C)=C/C=C/C(C)=C/C=C/C=C(C)/C=C/C=C(\C)C(=O)C[C@@]23O[C@]2(C)C[C@@H](O)CC3(C)C)C(C)(C)CC(O)C1	-	-	-	27.6 µM
CCN1c2ncc(CCOc3ccc(CCC(=O)O)c4ccccc34)cc2C(=O)Nc2c(C)cc(Cl)nc21	-	-	RT-Y188L	>1 µM
Cc1occc1C(=S)Nc1ccc(Cl)c(/C=N/OC(C)(C)C)c1	-	-	-	13 µM
CCN1c2ncc(CCOc3ccc(-c4ccc(Cl)c(C(=O)O)c4)cc3C)cc2C(=O)N(C)c2cccnc21	-	IIIB	-	<0.05 µM
COC(=O)[C@@H](NC(=O)c1ccc(NC(=O)CSc2nnc(Br)n2-c2ccc(C3CC3)c3ccccc23)c(Cl)c1)C(C)C	-	-	-	<0.05 µM
CCN1c2ncc(CCOc3ccc(-c4cc(CC(=O)O)ccc4C)cc3C)cc2C(=O)N(C)c2cccnc21	-	IIIB	-	<0.05 µM
C/C(=C\CC[C@@H](C)[C@H]1CC[C@@]2(C)C1=CC[C@H]1[C@@]3(C)CCC(=O)C(C)(C)[C@@H]3CC[C@@]12C)C(=O)O	-	-	-	12.2 µg/mL
CN1C(=O)c2cncnc2N(C)c2ccccc21	-	IIIB	-	>30 µM
CCN1c2ncc(CCOc3ccc(Nc4ccc(C(=O)O)cc4)cc3C)cc2C(=O)N(C)c2cccnc21	-	IIIB	RT-K103N Y181C	<0.05 µM
CSc1ncc2c(n1)N(C(C)C)c1ccccc1N(C)C2=O	-	IIIB	-	>30 µM
O=C(O)CCC(=O)NC[C@@H]1CC[C@H](n2cc(-c3cccs3)c(=O)[nH]c2=O)O1	-	-	-	>200 µg/mL
CC(C)N1c2ccccc2N(c2ccccc2)C(=O)c2cnn(C)c21	-	IIIB	-	>30 µM
CCN1c2ncc(CCOc3ccc(C(=O)O)c4c3CCN(S(=O)(=O)N(C)C)C4)cc2C(=O)N(C)c2cccnc21	-	-	RT-Y188L	0.1–1 µM
CCN1c2ccccc2N(C)C(=O)c2cnc(SC)nc21	-	IIIB	-	>30 µM
Cc1cc(C)cc(S(=O)(=O)c2c(C(N)=O)[nH]c3ccc(Cl)cc23)c1	-	-	RT-Y181I	0.14 µM
COC(=O)C1=CC[C@H]2C(C(=O)OC)=CC(=O)[C@@H](C(C)C)C[C@H]12	-	-	-	33.13 µg/mL
CCN1c2ncc(CCOc3ccc(C(=O)NN)cc3C)cc2C(=O)Nc2c(C)ccnc21	-	IIIB	-	<0.05 µM
Cc1cc(C2CC2)cc(C)c1-n1c(Br)nnc1SCC(=O)Nc1ccc(C(=O)O)cc1Cl	-	-	RT-Y188L	>0.1 µM
CCN1c2ncc(CCOc3ccc(S(=O)(=O)NCC(=O)O)cc3C)cc2C(=O)N(C)c2cccnc21	-	IIIB	-	<0.05 µM
CC(C)[C@H](NC(=O)c1ccc(NC(=O)CSc2nnc(Br)n2-c2ccc(C3CC3)c3ccccc23)c(Cl)c1)C(=O)O	-	-	RT-Y181C	<0.05 µM
O=c1[nH]c(=O)n([C@H]2CC[C@@H](COP(=O)(O)OP(=O)(O)OP(=O)(O)O)O2)cc1-c1cccs1	-	-	-	6 µg/mL
CCN1c2ncc(CCOc3ccc(C(=O)c4ccc(C(=O)O)cc4)cc3C)cc2C(=O)N(C)c2cccnc21	-	IIIB	RT-K103N Y181C	0.05–0.1 µM
CCN1c2ncc(CCOc3ccc(CC(=O)O)c4ccccc34)cc2C(=O)N(C)c2cccnc21	-	-	RT-V106A	>1 µM
NC(=O)c1[nH]c2ccc(Cl)cc2c1S(=O)(=O)c1ccccc1	-	WT	-	0.001 µM
COc1ccc2c(C)ccc(-n3c(Br)nnc3SCC(=O)Nc3ccc(C(=O)O)cc3Cl)c2c1	-	-	RT-Y181C	<0.05 µM
Nc1cc(OCCOCP(=O)(O)OP(=O)(O)OP(=O)(O)O)nc(N)n1	Mg2+	-	-	>100 µM
C=CCO/N=C/c1cc(NC(=S)c2ccoc2C)ccc1Cl	-	-	RT-Y181C	>50 µM
CCN1C(=O)c2cncnc2N(CC)c2ccccc21	-	IIIB	-	≥30 µM
CC[C@H](C)[C@H](NC(=O)c1ccc(NC(=O)CSc2nnc(Br)n2-c2ccc(C3CC3)c3ccccc23)c(Cl)c1)C(=O)O	-	-	RT-Y188L	0.05–0.1 µM
COC(=O)CCCC=C(c1cc(C)c(OC)c(C(=O)OC)c1)c1cc(C)c(OC)c(C(=O)OC)c1	-	-	-	<1 µM
CCc1ccc(-n2c(Br)nnc2SCC(=O)Nc2ccc(C(=O)N[C@H](C(=O)OC)C(C)C)cc2Cl)c2ccccc12	-	-	RT-Y188L	<0.05 µM
Cc1cn([C@H]2CC[C@@H](COP(=O)(O)OP(=O)(O)OP(=O)(O)O)O2)c(=O)[nH]c1=O	-	-	-	0.22 µg/mL
CCN1c2ncc(CCOc3ccc(NC(=O)CCC(=O)O)cc3C)cc2C(=O)N(C)c2cccnc21	-	IIIB	-	<0.05 µM
CCCc1cc(=O)oc2c3c(c4c(c12)OC(C)(C)C=C4)O[C@H](C)C[C@@H]3O	-	WT	-	2.88 µM
O=C(O)CNC(=O)c1ccc(NC(=O)CSc2nnc(Br)n2-c2ccc(C3CC3)c3ccccc23)c(Cl)c1	-	-	-	<0.05 µM

Again, the opening 4 rows:

structure | conditions | strain | changes | result
Nc1cc(OC[C@H]2CC[C@@H](COP(=O)([O-])OP(=O)([O-])OP(=O)([O-])O)O2)nc(N)n1 | Mn2+ | - | - | 352 µM
Cc1occc1C(=S)Nc1ccc(Cl)c(C(=O)OCC2CC2)c1 | - | - | RT-V106A | >50 µM
NC[C@@H]1CC[C@H](n2cc(-c3cccs3)c(=O)[nH]c2=O)O1 | - | - | - | 200 µg/mL
CCNC(=O)N1CCc2c(OCCc3cnc4c(c3)C(=O)N(C)c3cccnc3N4CC)ccc(C(=O)O)c2C1 | - | WT | - | <0.1 µM

An empty or dashed field is not shown. ICn: concentration for n% inhibition. a–b is a range or a potency band.